# Reference: patent US20120148530A1, “Method for the treatment or prevention of virus infection using polybiguanide-based compounds” (Novaflux Biosciences, Inc., priority 2003, published 2012)
# Tests used:
# [1] = system: Primary vaginal keratinocytes; assay: Primary vaginal keratinocyte viability; type: cell-based, human
# ME-180 cells = assay: ME-180 cell viability; type: cell-based
# P4R5 cells = assay: P4R5 cell viability, MTT; details: P4-R5 cells
# Text: To build on the information provided by the monomeric biguanide data a series of polybiguanide molecules were synthesized with varied linker length as described in Example 1. In these molecules the methylene spacer arms between the biguanide functionalities (X and Y in Forumla I) have been changed.
# As described above the effect of PEHMB and related compounds on P4R5 cell viability after a two-hour exposure to the compound was compared to the effects of control compounds such as N-9. […] To further evaluate the effect of this class of compound on various types of cells (in particular PEHMB P4-R5 cells, ME-180 cells (ATCC HTB-33; cervical epidermoid carcinoma), VK2/E6E7 human vaginal cell line (Fichorova et al. 1997 Biol. Reprod. 57:847-855), and human primary vaginal karatinocytes (isolated from tissues obtained from vaginal reconstructive surgery)) the compounds were incubated with the different cells for various lengths of time before assessment of cell viability.
# Vk2/E6E7 cells = assay: Vk2/E6E7 cell viability
substance,measurement,setting,value
dextran sulfate,CC50 % 2 hr exposure,[1],0.7%
same,CC50 % 10 minute exposure,ME-180 cells; 10 minute exposure,~2.0%
same,CC50 % 2 hr exposure,ME-180 cells; 2 hr exposure,2.0%
same,CC50 % 6 hr exposure,ME-180 cells; 6 hr exposure,>1.0%
same,CC50 % 6 hr exposure,P4R5 cells,>1.0%
same,CC50 % 10 minute exposure,Vk2/E6E7 cells; 10 minute exposure,~2.0%
same,CC50 % 2 hr exposure,Vk2/E6E7 cells; 2 hr exposure,>1.0%
same,CC50 % 6 hr exposure,Vk2/E6E7 cells; 6 hr exposure,>1.0%
